Laboratory results: patent publication US20150313990A1
“And” between values parts separate entries of the source, which are not always exact repeats. Equal values may be shown once. Read-outs that look alike come from different tables or passages of the source.

Experiments:
[1] = molecular target: native HIV-1 BaL envelope trimers on the surface of persistently infected human T cells (PM1) (HIV-1 BaL)
[2] = molecular target: native HIV-1 BaL envelope trimers on the surface of persistently infected human T cells (PM1) (HIV-1 BaL); assay: flow cytometry on PM1 cells infected with HIV-1 BaL, pre-incubated with PG9 25 µg/ml (competitor), then sCD4 (4 domains) 5 µg/ml, detection with OKT4
[3] = molecular target: native HIV-1 BaL envelope trimers on the surface of persistently infected human T cells (PM1) (HIV-1 BaL); assay: flow cytometry on PM1 cells infected with HIV-1 BaL, pre-incubated with PG9 25 µg/ml (competitor), then sCD4 (4 domains) 1 µg/ml, detection with OKT4

“soluble CD4 (4 domains) (from UniProt P01730 26-394) (receptor)” was tested, and the MFI [1] was 305 and 196, the MFI [2] was 122 and the MFI [3] was 121.
